Measured values from several laboratories, pooled; numbers as filed in NIAID ChemDB.

Common to all: enzyme or target tests

a–b is a range or a potency band. ICn is the concentration giving n% inhibition. Blank or dashed fields: not listed here. Inhibition is in % at the dose shown (toxicity tests: loss of growth or viability). Rows are shuffled and stem from different studies.

SMILES	target	species	dose	method	measure	strain or isolate	result
COc1nc(NCCCN2CCOCC2)nc(Nc2ccc3cn[nH]c3c2)n1	DNA polymerase	Hepatitis B virus	0.1 µg/mL	-	inhibition	-	56%
O=C(O)c1ccc2c(c1)nc(-c1ccc3nc(-c4ccccc4)cc(Oc4ccccc4)c3c1)n2C1CCCCC1	NS5B polymerase	Hepatitis C virus	100 µM	-	inhibition	-	101%
O=C(O)/C=C/c1ccc(NC(=O)C2(NC(=O)c3ccc4c(c3)nc(-c3cccs3)n4C3CCC3)CCCC2)cc1	NS5B polymerase	Hepatitis C virus	-	-	IC50	-	0.5–5 µM
COc1nc(Nc2ccc3[nH]ncc3c2)nc(NN2CCN(C)CC2)n1	DNA polymerase	Hepatitis B virus	0.1 µg/mL	-	inhibition	-	22%
Nc1ccc(-c2ccc3cc(-c4nc5cc(C(=O)O)ccc5n4C4CCCCC4)ccc3n2)cc1Br	NS5B polymerase	Hepatitis C virus	100 µM	-	inhibition	-	98.17%
O=C(Nc1ccccc1)Nc1cccc(-c2nc(C(=O)O)c(O)c(=O)[nH]2)c1	HCV polymerase	Hepatitis C virus	-	-	IC50	-	<100 µM
COc1cccc(-c2cc(-c3ccc(OC)c(Cl)c3)n3nc(C(=O)O)cc3n2)c1	RNA-dependent RNA polymerase	Hepatitis C virus	-	-	IC50	-	>10 µM
Cc1nc(N)sc1-c1ccc2cc(-c3nc4cc(C(=O)O)ccc4n3C3CCCCC3)ccc2n1	NS5B polymerase	Hepatitis C virus	100 µM	-	inhibition	-	97.45%
O=C(NCCc1ccc(Cl)cc1Cl)Nc1cscc1-c1nc(C(=O)O)c(O)c(=O)[nH]1	HCV polymerase	Hepatitis C virus	-	-	IC50	-	<25 µM
COc1nc(Nc2ccc3cn[nH]c3c2)nc(N2CCN(CCO)CC2)n1	DNA polymerase	Hepatitis B virus	-	-	IC50	-	>1 µg/mL
CC[C@@H](C=O)NC(=O)[C@H](CC(C)C)NC(=O)[C@@H](NC(=O)[C@@H](NC(=O)c1ccc(=O)[nH]c1)C(C)C)C(C)C	NS3 protease	Hepatitis C virus	-	-	Ki	-	1–100 µM
COc1ccc(-c2ccc(N(C)C)cc2)c(-c2ccc3cc(-c4nc5cc(C(=O)O)ccc5n4C4CCCCC4)ccc3n2)c1	NS5B polymerase	Hepatitis C virus	33 µM	-	inhibition	-	100.4%
CNC(=O)c1c(-c2ccc(F)cc2)oc2cc(N(C)S(C)(=O)=O)c(OCc3cccc(OC)c3)cc12	Nonstructural protein 5B	Hepatitis C virus	-	-	IC50	-	≤0.5 µM
COc1nc(NCCCn2ccnc2)nc(Nc2ccc3[nH]ncc3c2)n1	DNA polymerase	Hepatitis B virus	0.01 µg/mL	-	inhibition	-	25%
COCCOc1ccc(-c2ccccc2)c(-c2ccc3cc(-c4nc5cc(C(=O)O)ccc5n4C4CCCCC4)ccc3n2)c1	NS5B polymerase	Hepatitis C virus	33 µM	-	inhibition	-	97.89%
Cn1cc(CC(=O)Nc2cscc2-c2nc(C(=O)O)c(O)c(=O)[nH]2)c2ccccc21	HCV polymerase	Hepatitis C virus	-	-	IC50	-	<25 µM
COc1ccc(-c2ccc(-c3nc4cc(C(=O)O)[nH]n4c(=O)c3C3CCCCC3)cc2)cc1F	RNA-dependent RNA polymerase	Hepatitis C virus	-	-	IC50	-	1–10 µM
C[C@@H]1CCCC[C@H]1n1c(-c2ccco2)nc2cc(C(=O)NC3(C(=O)Nc4ccc(/C=C/C(=O)O)cc4)CCCC3)ccc21	NS5B polymerase	Hepatitis C virus	-	-	IC50	-	0.5–5 µM
O=C(O)c1cc2nc(-c3cccc(Oc4ccccc4)c3)cc(NCc3ccccc3Cl)n2n1	RNA-dependent RNA polymerase	Hepatitis C virus	-	-	IC50	-	1–10 µM
CC[C@@H](C=O)NC(=O)[C@@H]1C[C@@H](OC(=O)Nc2cccc(C#N)c2)CN1C(=O)[C@@H](NC(=O)[C@@H](NC(=O)c1cnccn1)C(C)C)C(C)C	NS3 protease	Hepatitis C virus	-	-	Ki	-	1–100 µM
COc1ccc(-c2ccc(C(N)=O)cc2)c(-c2ccc3cc(-c4nc5cc(C(=O)O)ccc5n4C4CCCCC4)ccc3n2)c1	NS5B polymerase	Hepatitis C virus	33 µM	-	inhibition	-	101%
CNC(=O)c1c(-c2ccc(F)cc2)oc2c(C)cc(OC)cc12	Nonstructural protein 5B	Hepatitis C virus	-	-	IC50	-	≤0.5 µM
COc1nc(Nc2ccc3cn[nH]c3c2)nc(N2CCOCC2)n1	DNA polymerase	Hepatitis B virus	-	-	IC50	-	0.1–1 µg/mL
CC[C@H](NC(=O)[C@H](CC(C)C)NC(=O)[C@@H](NC(=O)[C@@H](NC(=O)[C@H](CC(=O)O)CC(=O)[C@H](CCC(=O)O)NC(C)=O)C(C)C)C(C)C)C(=O)C(=O)NCCc1ccccc1	NS3 protease	Hepatitis C virus	-	-	Ki	-	<1 µM
CC(C)C[C@H](NC(=O)c1cnn2c(C3CCCCC3)c(-c3ccc(F)cc3)cnc12)C(=O)O	RNA-dependent RNA polymerase	Hepatitis C virus	-	-	IC50	-	<1 µM
CCCC(=O)N(Cc1cccc(Cl)c1)c1cc(-c2ccccc2)sc1C(=O)O	NS3 ATPase	Hepatitis C virus	-	-	IC50	-	<5 µM
CC[C@H](NC(=O)[C@@H](NC(=O)[C@@H](NC(=O)[C@H](CC(C)C)NC(=O)[C@@H](CCC(=O)O)NC(=O)[C@H](CC(=O)O)NC(C)=O)[C@@H](C)CC)C1CCCCC1)C(O)/C=C/c1nccs1	HCV NS3 protease	Hepatitis C virus	10 µM	-	inhibition	-	47%
COC(=O)c1nc(-c2sccc2NC(=O)c2ccccc2-c2ccccc2C(=O)O)[nH]c(=O)c1O	HCV polymerase	Hepatitis C virus	-	-	IC50	-	<50 µM
CC[C@@H](C=O)NC(=O)[C@@H]1C[C@@H](OCc2ccccc2)CN1C(=O)[C@@H](NC(=O)c1ccccc1OC)C(C)C	NS3 protease	Hepatitis C virus	-	-	Ki	-	>100 µM
O=C(O)c1cc2nc(-c3ccccc3)c(CCC3CCCCC3)c(=O)n2[nH]1	RNA-dependent RNA polymerase	Hepatitis C virus	-	-	IC50	-	<1 µM
O=C(/C=C/c1ccc(O)c(O)c1)O[C@H]1[C@H](O)C[C@](O)(C(=O)O)C[C@H]1OC(=O)/C=C/c1ccc(O)c(O)c1	HBeAg	Hepatitis B virus	10 µg/mL	ELISA	inhibition	HepG 2.2.15	6.7%
Cc1ccc(C(=O)N(Cc2ccccc2Cl)c2cc(-c3ccccc3)sc2C(=O)O)cc1	NS3 ATPase	Hepatitis C virus	-	-	IC50	-	<5 µM
CC[C@H](NC(=O)[C@@H](NC(=O)[C@@H](NC(=O)[C@H](CC(C)C)NC(=O)[C@@H](CCC(=O)O)NC(=O)[C@H](CC(=O)O)NC(C)=O)[C@@H](C)CC)C1CCCCC1)C(=O)/C=C/CCCC(C)C	HCV NS3 protease	Hepatitis C virus	1 µM	-	inhibition	-	42%
O=C(O)/C=C/c1ccc(NC(=O)C(NC(=O)c2ccc3c(c2)nc(-c2ccoc2)n3C2CCCCC2)C2CCCCC2)cc1	NS5B polymerase	Hepatitis C virus	-	-	IC50	-	0.5–5 µM
O=C(O)c1nc(-c2cccc(CS(=O)(=O)c3ccccn3)c2)[nH]c(=O)c1O	HCV polymerase	Hepatitis C virus	-	-	IC50	-	<100 µM
COc1nc(Nc2ccc3[nH]ncc3c2)nc(N2CCN(C)CC2)n1	DNA polymerase	Hepatitis B virus	0.01 µg/mL	-	inhibition	-	32%
Cc1cc(Cl)cc(Cl)c1CNC(=O)Nc1ccccc1-c1nc(C(=O)O)c(O)c(=O)[nH]1	HCV polymerase	Hepatitis C virus	-	-	IC50	-	<100 µM
CC(C)[C@H](NC(=O)c1ccc2cc(-c3nc4cc(C(=O)O)ccc4n3C3CCCCC3)ccc2n1)C(N)=O	NS5B polymerase	Hepatitis C virus	100 µM	-	inhibition	-	94.96%
CC[C@H](NC(=O)[C@@H](NC(=O)[C@@H](NC(=O)[C@H](CC(C)C)NC(=O)[C@@H](CCC(=O)O)NC(=O)[C@H](CC(=O)O)NC(C)=O)[C@@H](C)CC)C1CCCCC1)C(=O)CCc1ccc(OC)cc1	HCV NS3 protease	Hepatitis C virus	1 µM	-	inhibition	-	30%
Cc1ccc(C(=O)N(C)c2cc(-c3ccccc3)sc2C(=O)O)cc1[N+](=O)[O-]	NS3 ATPase	Hepatitis C virus	-	-	IC50	-	5–20 µM
COc1ccc(-c2nc3cc(C(=O)O)[nH]n3c(=O)c2C2CCCCC2)cc1	RNA-dependent RNA polymerase	Hepatitis C virus	-	-	IC50	-	1–10 µM
COc1cccc(-c2cc(NS(=O)c3ccccc3C)c(C(=O)O)s2)c1	NS3 ATPase	Hepatitis C virus	-	-	IC50	-	<5 µM
COc1nc(Nc2ccc3cn[nH]c3c2)nc(N2CCN(C(=O)c3cccnc3)CC2)n1	DNA polymerase	Hepatitis B virus	0.01 µg/mL	-	inhibition	-	10%
CNC(=O)c1c(-c2ccc(F)cc2)oc2cc(N3CCOCC3)c(OCc3cccc(C(=O)OC)c3)cc12	Nonstructural protein 5B	Hepatitis C virus	-	-	IC50	-	≤0.5 µM
Cc1ccc(C(=O)N(C)c2cc(-c3ccccc3F)sc2C(=O)O)cc1	NS3 ATPase	Hepatitis C virus	-	-	IC50	-	<5 µM
Cc1c(C(=O)N[C@H](C)C(=O)Nc2ccc(/C=C/C(=O)O)cc2)ccc2c1nc(-c1ccoc1)n2C1CCCCC1	NS5B polymerase	Hepatitis C virus	-	-	IC50	-	0.5–5 µM
CC[C@H](NC(=O)[C@@H](NC(=O)[C@@H](NC(=O)[C@H](CC(C)C)NC(=O)[C@@H](CCC(=O)O)NC(=O)[C@H](CC(=O)O)NC(C)=O)[C@@H](C)CC)C1CCCCC1)C(=O)/C=C/c1ccc(OC)cc1	HCV NS3 protease	Hepatitis C virus	1 µM	-	inhibition	-	64%
Cc1nn2c(C3CCCCC3)c(-c3ccoc3)cnc2c1C(=O)N[C@@H](Cc1ccc(O)cc1)C(=O)O	RNA-dependent RNA polymerase	Hepatitis C virus	-	-	IC50	-	<1 µM
Cn1c(C(=O)O)cc2cc(NC(=O)C3(NC(=O)c4ccc5c(c4)nc(-c4ccoc4)n5C4CCCCC4)CCNCC3)ccc21	NS5B polymerase	Hepatitis C virus	-	-	IC50	-	<0.5 µM
O=C(O)c1ccc2c(c1)nc(-c1ccc3nc(-c4cc([N+](=O)[O-])ccc4-c4ccc(Cl)cc4)ccc3c1)n2C1CCCCC1	NS5B polymerase	Hepatitis C virus	33 µM	-	inhibition	-	99.19%
Cc1c(Cl)cc(F)cc1S(=O)(=O)NC(=O)Nc1cscc1-c1nc(C(=O)O)c(O)c(=O)[nH]1	HCV polymerase	Hepatitis C virus	-	-	IC50	-	<25 µM
O=C(O)/C=C/c1ccc(NC(=O)C2(NC(=O)c3ccc4c(c3)nc(-c3cccs3)n4C3CCCC3)CCCC2)cc1	NS5B polymerase	Hepatitis C virus	-	-	IC50	-	0.5–5 µM

For reference, 4 entries again:

SMILES | target | species | dose | method | measure | strain or isolate | result
CC[C@H](NC(=O)[C@@H](NC(=O)[C@@H](NC(=O)[C@H](CC(C)C)NC(=O)[C@@H](CCC(=O)O)NC(=O)[C@H](CC(=O)O)NC(C)=O)[C@@H](C)CC)C1CCCCC1)C(=O)CCc1ccc(OC)cc1 | HCV NS3 protease | Hepatitis C virus | 1 µM | - | inhibition | - | 30%
COc1ccc(-c2ccc(-c3nc4cc(C(=O)O)[nH]n4c(=O)c3C3CCCCC3)cc2)cc1F | RNA-dependent RNA polymerase | Hepatitis C virus | - | - | IC50 | - | 1–10 µM
COC(=O)c1nc(-c2sccc2NC(=O)c2ccccc2-c2ccccc2C(=O)O)[nH]c(=O)c1O | HCV polymerase | Hepatitis C virus | - | - | IC50 | - | <50 µM
O=C(O)/C=C/c1ccc(NC(=O)C(NC(=O)c2ccc3c(c2)nc(-c2ccoc2)n3C2CCCCC2)C2CCCCC2)cc1 | NS5B polymerase | Hepatitis C virus | - | - | IC50 | - | 0.5–5 µM